Results reported in patent US5688511.
Results from cells or extracts need not show a direct contact.

By UniProt entry, the sequences of proteins in these tests, tags left out.
UniProt Q13148, whole entry: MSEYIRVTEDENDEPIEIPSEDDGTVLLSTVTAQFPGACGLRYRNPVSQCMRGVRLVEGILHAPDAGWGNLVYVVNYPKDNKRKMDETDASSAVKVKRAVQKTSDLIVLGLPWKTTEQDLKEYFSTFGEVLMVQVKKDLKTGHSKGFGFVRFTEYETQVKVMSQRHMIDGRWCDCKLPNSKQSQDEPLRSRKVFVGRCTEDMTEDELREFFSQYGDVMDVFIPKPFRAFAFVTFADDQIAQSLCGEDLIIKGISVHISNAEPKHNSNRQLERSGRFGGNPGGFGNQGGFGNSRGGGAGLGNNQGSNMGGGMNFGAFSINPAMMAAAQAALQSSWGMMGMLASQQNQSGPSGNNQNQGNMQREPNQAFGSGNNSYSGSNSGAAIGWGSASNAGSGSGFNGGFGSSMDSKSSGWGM

Target: endogenous TDP-43 (HeLa nuclear extract, phosphocellulose fraction A) (Homo sapiens) (UniProt Q13148)
Test: EMSA
Conditions: shift-western with anti-TDP-43; 43 kDa species also in UV crosslinking; protein in an extract; label: 32P

## CTGCTTTTTGCCTGTACTGGGTCTCTCTGGTTAGACCAGATCTGAG (double strand) [HIV-1 LTR -18/+28 (TAR DNA) WT]
  binding result: binds
